How the values were obtained:
Assay in all cases: biochemical
[1] = target: HLA-DQ DQA1*01:03/DQB1*06:03 (Homo sapiens, UniProt P01909+P01920, A157G/A45G/C70R/E118A/E183D/E77G/F83G/G63E/H199R/H252R/H253Q/I129T/I235V/I88M/INS77G/K197Q/L117V/L119F/L178F/L71W/L74F/L85Q/L91A/L98M/N214S/P87R/Q116E/Q76K/R102G/R240Q/R64K/R75S/R78G/S102Y/S152A/S185I/S41F/S97I/T121G/T122I/T172A/T86R/V68A/V73E/Y34C/Y48F/Y58L/Y62H)
[2] = target: HLA-DQ DQA1*03:01/DQB1*03:02 (Homo sapiens, UniProt P01909+P01920, A209T/A45G/C70Q/D89A/DUP78-78/E183D/E77G/F237L/G63E/H199R/I129T/K197E/L178F/L74F/L98V/Q57E/Q76R/S185I/S97I/T217I/T49S/V73L/Y58L); assay type: binding
HLA-DR DRB3*02:02 = HLA-DR DRB3*02:02 (Homo sapiens, UniProt P01903+P79483, A212P/D57E/F66Y/L67A/R103Q/R218S/R40L/S89Y/T80R/V86D/Y55F/Y59H); assay type: binding
[3] = target: HLA-DQ DQA1*03:01/DQB1*03:01 (Homo sapiens, UniProt P01909+P01920, A209T/C70Q/DUP78-78/E183D/F237L/G63E/I129T/K197E/L178F/L74F/L98V/Q57E/Q76R/S185I/S97I/T49S/V73L); assay type: binding
[4] = target: HLA-DQ DQA1*02:01/DQB1*02:02 (Homo sapiens, UniProt P01909+P01920, A45G/A70V/C70K/D167G/D89A/E106A/E183D/E77G/E98D/F237L/F77L/G63E/H199R/I129T/K197E/L107V/L178F/L74F/N214S/P84L/P87L/Q57E/Q76R/R75H/S185I/S97I/T103K/T109R/T172A/T60S/V73L/V78E/V99I/Y48F/Y58L/Y62S/Y69I/Y79F); assay type: binding
[5] = target: HLA-DQ DQA1*01:02/DQB1*06:02 (Homo sapiens, UniProt P01909+P01920, A157G/A45G/C70R/E118A/E183D/E77G/F83G/G63E/H151Q/H199R/H252R/H253Q/I129T/I235V/I88M/INS77G/K197Q/L117V/L119F/L178F/L71W/L74F/L85Q/L91A/L98M/N214S/P87R/Q116E/Q76K/R102G/R240Q/R75S/R78G/S102Y/S185I/S41F/S97I/T121G/T122I/T172A/T86R/V229M/V68A/V73E/Y34C/Y41F/Y58L); assay type: binding
HLA-DR DRB4*01:01 = HLA-DR DRB4*01:01 (Homo sapiens, UniProt P01903+P13762, G164S); assay type: binding
[6] = target: HLA-DP DPA1*02:01/DPB1*01:01 (Homo sapiens, UniProt P04440+P20036, F191V/F38Y/F64Y/G113D/G114E/K142R/L158P/L37V/M105V/M116V/M62Q/P115A/Q81R/R125K/R223Q/T114A/T199I/T259P)
[7] = target: T1, HLA-DP DPA1*02:01/DPB1*14:01 (Homo sapiens, UniProt P04440+P20036, A65V/A84D/A85E/E86D/F191V/F38H/G113D/G114E/G40L/I94L/K142R/L158P/L37V/M105V/M116V/M62Q/P115A/Q81R/R125K/T114A/T199I/T259P); assay type: binding
T1 sequence (P20036 29-260 A42M/M62Q/Q81R/T114A/K142R/L158P/F191V/T259P): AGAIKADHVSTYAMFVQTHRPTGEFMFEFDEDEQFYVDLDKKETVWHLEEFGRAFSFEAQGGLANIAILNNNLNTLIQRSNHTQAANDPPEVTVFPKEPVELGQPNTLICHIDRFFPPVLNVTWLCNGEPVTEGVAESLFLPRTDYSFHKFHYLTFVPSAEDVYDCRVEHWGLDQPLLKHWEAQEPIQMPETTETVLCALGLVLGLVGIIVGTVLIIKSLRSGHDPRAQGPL
T1 sequence (P04440 30-258 L37V/F38H/G40L/A65V/A84D/A85E/E86D/I94L/M105V/G113D/G114E/P115A/M116V/R125K/T199I/R223Q): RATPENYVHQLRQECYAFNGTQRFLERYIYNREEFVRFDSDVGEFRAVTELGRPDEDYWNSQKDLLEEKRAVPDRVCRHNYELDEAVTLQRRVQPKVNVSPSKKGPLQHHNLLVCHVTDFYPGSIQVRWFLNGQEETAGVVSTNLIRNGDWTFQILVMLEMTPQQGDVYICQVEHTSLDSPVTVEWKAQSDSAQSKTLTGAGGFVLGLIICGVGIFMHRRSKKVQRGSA

By UniProt entry, the sequences of proteins in these tests, tags left out. Where a name states a change or a piece, a line headed by the entry shows the natural chain unless it says otherwise. Residues count along the entry.
UniProt P79483, 30-266 R40L/Y55F/D57E/Y59H/F66Y/L67A/T80R/V86D/S89Y/R103Q/A212P/R218S limits assumed: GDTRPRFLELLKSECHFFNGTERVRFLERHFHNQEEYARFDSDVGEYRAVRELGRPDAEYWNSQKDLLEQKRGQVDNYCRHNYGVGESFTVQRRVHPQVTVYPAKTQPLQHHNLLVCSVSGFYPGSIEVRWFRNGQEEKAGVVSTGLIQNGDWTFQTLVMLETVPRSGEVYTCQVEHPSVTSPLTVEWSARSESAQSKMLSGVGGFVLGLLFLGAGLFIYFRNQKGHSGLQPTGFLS
UniProt P20036: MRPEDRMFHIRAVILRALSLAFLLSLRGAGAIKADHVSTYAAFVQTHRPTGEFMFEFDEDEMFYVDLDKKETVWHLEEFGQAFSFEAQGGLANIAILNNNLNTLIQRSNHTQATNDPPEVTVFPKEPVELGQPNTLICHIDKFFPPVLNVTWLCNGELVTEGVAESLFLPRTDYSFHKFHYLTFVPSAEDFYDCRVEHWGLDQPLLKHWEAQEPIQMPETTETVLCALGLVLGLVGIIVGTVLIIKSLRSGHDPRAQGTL

HLA-DR DRB1*10:01 = HLA-DR DRB1*10:01 (Homo sapiens, UniProt P01903+P01911, A100R/A169T/D57E/F55L/F60V/F69Y/F76Y/I96L/L162R/M171V/P40V/Q260P/Q39E/Q99R/R195Q/R42F/S149N/S66Y/T210M/V115G/V67A/W38E/Y59R/Y61H); assay type: binding
HLA-DR DRB1*09:01 = HLA-DR DRB1*09:01 (Homo sapiens, UniProt P01903+P01911, A100R/A103E/D57H/D86V/F55Y/F60I/F76Y/I96F/K127E/L162R/M171V/P40D/Q125H/Q99R/R33Q/R42F/S133A/S66N/T210M/V115G/W38K/Y107V/Y59G/Y89S); assay type: binding
[8] = target: HLA-DQ DQA1*04:01/DQB1*04:02 (Homo sapiens, UniProt P01909+P01920, A45G/E106S/E183D/E77G/E98D/H199R/I129T/K197E/L107V/L178F/L91T/P87R/P88L/R102E/S185I/S97I/T103D/T217I/V99I/Y41F/Y58G)

SMILES	IC50 [1] [nM]	IC50 [2] [nM]	IC50 (HLA-DR DRB3*02:02) [nM]	IC50 [3] [nM]	IC50 [4] [nM]	IC50 [5] [nM]	IC50 (HLA-DR DRB4*01:01) [nM]	IC50 [6] [nM]	IC50 [7] [nM]	IC50 (HLA-DR DRB1*10:01) [nM]	IC50 (HLA-DR DRB1*09:01) [nM]	IC50 [8] [nM]
CC[C@H](C)[C@H](NC(=O)[C@H](CCC(=O)O)NC(=O)CN)C(=O)N[C@@H](Cc1ccc(O)cc1)C(=O)N[C@@H](CCCCN)C(=O)N[C@@H](CCCNC(=N)N)C(=O)N[C@@H](Cc1c[nH]c2ccccc12)C(=O)N[C@H](C(=O)N[C@H](C(=O)N[C@@H](CC(C)C)C(=O)NCC(=O)N[C@@H](CC(C)C)C(=O)N[C@@H](CC(N)=O)C(=O)N[C@@H](CCCCN)C(=O)N[C@H](C(=O)N[C@H](C(=O)N[C@@H](CCCNC(=N)N)C(=O)N[C@@H](CCSC)C(=O)N[C@@H](Cc1ccc(O)cc1)C(N)=O)C(C)C)[C@@H](C)CC)[C@@H](C)CC)[C@@H](C)CC [p24(127-145)]	1.7	13000	321	866	24700	473	172	496	2250	88	151	11900
CSCC[C@H](NC(=O)[C@@H]1CCCN1C(=O)[C@H](CCCNC(=N)N)NC(=O)[C@H](CC(C)C)NC(=O)[C@@H]1CCCN1C(=O)[C@@H](NC(=O)[C@H](CCC(N)=O)NC(=O)[C@@H]1CCCN1C(=O)[C@H](CCCNC(=N)N)NC(=O)[C@@H](NC(=O)[C@@H]1CCCN1C(=O)[C@H](Cc1ccccc1)NC(=O)CN)C(C)C)C(C)C)C(=O)N[C@H](C(=O)N[C@@H](Cc1ccc(O)cc1)C(=O)N[C@@H](CCCCN)C(=O)NCC(=O)N[C@@H](C)C(=O)N[C@@H](Cc1ccccc1)C(=O)N[C@@H](CC(=O)O)C(=O)N[C@@H](CC(C)C)C(N)=O)[C@@H](C)O [nef(67-87)]	5940	7700	15100	309	18800	19900	22	2010	12200	105	205	18700
CC[C@H](C)[C@H](NC(=O)[C@@H](NC(=O)[C@H](CCC(=O)O)NC(=O)[C@@H]1CCCN1C(=O)[C@@H](N)CO)C(C)C)C(=O)N1CCC[C@H]1C(=O)N[C@@H](CCSC)C(=O)N[C@@H](Cc1ccccc1)C(=O)N[C@@H](CO)C(=O)N[C@@H](C)C(=O)N[C@@H](CC(C)C)C(=O)N[C@@H](CO)C(=O)N[C@@H](CCC(=O)O)C(=O)NCC(=O)N[C@@H](C)C(=O)N[C@H](C(N)=O)[C@@H](C)O [p24(33-48)]	7.5	645	3920	79	1690	5960	58	1920	2060	3.6	74	473

Source: publication PMC3445454, “Broad and Cross-Clade CD4^+ T-Cell Responses Elicited by a DNA Vaccine Encoding Highly Conserved and Promiscuous HIV-1 M-Group Consensus Peptides” (PLoS ONE, 2012)
